Test [1] deals with T1, first-generation H1 LAH construct H1frThrST (Influenza A virus (H1)). Briefly: ELISA, supernate. (In an ELISA, binding on a coated surface is turned into a signal by an enzyme label.)
Test [2] concerns the target T1, first-generation H1 LAH construct …. Briefly: ELISA, recombinant mAb.

B1: mAb 6J24 (antibody, V domains shown)
VH: EVQLVESGGGLVQPGRSLRLSCVGSGFNFDGYAMQWVRQVPGKGLEWVSGISWHSDSTGYADSVRGRFTISRDNAKNSLYLQMDSLRPEDTAFYYCGKSIGHVGGSYRHPIDYWGQGTLVTVS
VL: DIQLTQSPSSLSASVGDRVTITCRASQGITDYLAWYQQKPGTIPKLLIYAASTLQSGVPSRFSGGGYGTDFTLTISSLQPEDVATYYCQKYNSAPLTFGGGTKVEIKR
In turn, B1 registered an OD in test [1] of 0.189 OD.

B2: mAb 3N6 (recombinant) (antibody, V domains shown)
VH: QVQLQESGPGLVKPSETLSLTCSVSGGSINYYYWSWIRQPPGKGLECIGYISDTGRTYYNPSLRSRVTISVDTSKNQFSLNLTSMTAADTAVYYCARDPTGSRQKNAFDMWGQGTMVTVS
VL: AIQMTQSPSSLSASVGDRVTITCRASQNIRSYLNWYQQKPGKAPNLLIYGTTSLESGVPSRFSGSGSGTDFTLTISSLQPEDFATYYCQQSYHTPQTFGQGTKVEIKR
B2: in test [2], the OD is 3.26 OD.

The values above are taken from patent US20130289246A1 (VANDERBILT UNIVERSITY, published 2013).
